{"source": "patent US20030133929A1", "about": "(priority 2002, published 2003)", "origin": "cited, not measured here", "tested_on": "Sinbis, Sendai and VSV viruses", "conditions": "room temperature; cited from earlier work"}
{"smiles": "CCCCOP(=O)(OCCCC)OCCCC", "values": [{"measurement": "minimum time for inactivation of the viruses", "result": 2, "unit": "h"}]}
